The source of these data is patent publication US20160177369.

The target in the data set is his6-tagged recombinant CFP-SNAP-25-YFP chimera protein (CFP-SNAP-25 (141-206)-YFP), purified from E. coli, P60881.

B1: botulinum neurotoxin E (BoNT/E) (protein)
chain 1: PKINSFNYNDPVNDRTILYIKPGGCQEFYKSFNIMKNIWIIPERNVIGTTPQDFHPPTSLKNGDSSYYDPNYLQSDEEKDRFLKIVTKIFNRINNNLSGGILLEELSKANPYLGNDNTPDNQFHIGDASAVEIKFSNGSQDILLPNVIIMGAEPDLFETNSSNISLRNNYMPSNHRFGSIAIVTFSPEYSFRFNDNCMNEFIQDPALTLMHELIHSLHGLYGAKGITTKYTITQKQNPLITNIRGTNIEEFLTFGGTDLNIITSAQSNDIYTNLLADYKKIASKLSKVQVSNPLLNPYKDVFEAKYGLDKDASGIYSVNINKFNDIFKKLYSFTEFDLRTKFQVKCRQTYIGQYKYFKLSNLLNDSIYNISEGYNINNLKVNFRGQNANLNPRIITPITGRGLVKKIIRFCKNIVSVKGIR
chain 2: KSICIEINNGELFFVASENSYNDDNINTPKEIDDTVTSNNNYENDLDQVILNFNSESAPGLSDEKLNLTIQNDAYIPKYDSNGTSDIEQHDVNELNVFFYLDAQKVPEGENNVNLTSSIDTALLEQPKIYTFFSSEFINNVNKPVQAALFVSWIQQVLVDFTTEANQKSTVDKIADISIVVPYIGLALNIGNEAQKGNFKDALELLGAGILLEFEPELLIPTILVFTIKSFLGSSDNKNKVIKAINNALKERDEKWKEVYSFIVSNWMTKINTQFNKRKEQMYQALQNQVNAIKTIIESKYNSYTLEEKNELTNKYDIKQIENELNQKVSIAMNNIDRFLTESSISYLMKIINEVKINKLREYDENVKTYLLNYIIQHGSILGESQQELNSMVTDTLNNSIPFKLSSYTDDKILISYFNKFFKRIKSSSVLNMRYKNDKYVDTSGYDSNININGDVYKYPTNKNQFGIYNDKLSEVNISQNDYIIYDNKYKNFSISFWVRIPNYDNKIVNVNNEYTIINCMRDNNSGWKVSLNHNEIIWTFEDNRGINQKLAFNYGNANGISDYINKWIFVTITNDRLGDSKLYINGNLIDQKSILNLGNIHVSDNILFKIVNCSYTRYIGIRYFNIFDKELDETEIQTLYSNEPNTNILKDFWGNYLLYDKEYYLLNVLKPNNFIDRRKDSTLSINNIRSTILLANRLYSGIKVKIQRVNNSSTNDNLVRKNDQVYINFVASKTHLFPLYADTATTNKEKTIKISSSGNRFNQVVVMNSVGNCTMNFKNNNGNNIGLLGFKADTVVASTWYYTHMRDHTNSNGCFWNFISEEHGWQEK
As for B1, the “detection sensitivity, 16 hours against 4 hours incubation” value is given as “incubation for 16 hours slightly increased the detection sensitivity” and the “rate of FRET ratio decrease at various toxin concentrations, 300 nM sensor” value is reported as “higher toxin concentration resulted in faster decrease of the FRET ratio”.
